The record followed here is PubChem BioAssay AID2303 (GlaxoSmithKline (GSK), 2010).

Only a part is listed here, and it is no random draw. The source made the active and inactive calls.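 How the source made its calls: active means inhibition above 50%; inactive means the rest.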

The assay can be described thus: HepG2 cytotoxicity, primary screen, cytotoxicity control for P. falciparum antimalarial project, cell-based, ATP luminescence (AID 2303).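 Further: 0% = DMSO wells and 100% = digitonin-killed cells.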 The conditions noted are these: HepG2 viability, 24-48 h, at 10 µM, stronger effect = higher value.
For the compound `Cn1c(=O)n(C2CCN(CCCC(c3ccc(F)cc3)c3ccc(F)cc3)CC2)c2ccccc21`, the inhibition was inactive: 18%.

On to `CC(C)(C)c1cc2cc(N(C(=O)c3ccc(C(F)(F)F)cc3)C3CCN(Cc4ccccc4)CC3)ccc2[nH]1`, for which the inhibition was inactive: 2%.

Broadly, the inhibition is how much of the control response was suppressed.
